Patent US20090270431A1, “Cyclopentenol Nucleoside Compounds Intermediates for their Synthesis and Methods of Treating Viral Infections” (THE UNIVERSITY OF GEORGIA RESEARCH FOUNDATION, priority 2005, published 2009)
Structures can show the parent of a compound that is named as a salt. Where two headings read alike, the source gives them in different places.

What was measured:
Hepatitis B Virus [1] = assay: in vitro anti-HBV activity, VIR (extracellular virion HBV DNA); type: cell-based
Description: (§1) In the first biological experiment, a number of 7-deazaneplanocin compounds were tested in vitro to determine activity against hepatitis B virus (HBV).

Hepatitis B Virus [2] = assay: in vitro anti-HBV activity, RI (intracellular HBV DNA replication intermediates); type: cell-based; conditions: SI = CC50/EC90
Description: as §1

HCV RNA replicon = HCV RNA replicon assay; type: cell-based, hepatitis C virus (HCV); conditions: for SI value: ratio IC50 / EC50
Description: A number of […] 7-deazaneplanocin compounds were tested in vitro to determine activity against hepatitis C virus (HCV).

Cowpox = type: cell-based, cowpox virus; conditions: CPE, HFF Cells, SI = CC50/IC50
Vaccinia = type: cell-based, vaccinia virus; conditions: VV; CPE; HFF Cells; SI = CC50/IC50
SARS = type: cell-based; conditions: Vero 76, SI = CC50/IC50
RSV A = assay: antiviral assay, RSV A in MA-104; type: cell-based, respiratory syncytial virus A; conditions: SI = CC50/IC50
Rhinovirus = assay: antiviral assay, Rhinovirus in HeLa Ohio-1; type: cell-based; conditions: RV, HO-1, SI = CC50/IC50
PIV = assay: antiviral assay, PIV in MA-104; type: cell-based, parainfluenza virus; conditions: SI = CC50/IC50
Measles = assay: antiviral assay, Measles in CV-1; type: cell-based; conditions: SI = CC50/IC50
Flu A (H1N1) = type: cell-based; conditions: MDCK, SI = CC50/IC50
Flu A (H3N2) = type: cell-based; conditions: MDCK, SI = CC50/IC50
Flu A (H5N1) = type: cell-based; conditions: MDCK, SI = CC50/IC50
Yellow Fever = type: cell-based; conditions: YF, Vero, SI = CC50/IC50
SARS virus = type: cell-based; conditions: against SARS virus
Flu B = type: cell-based; conditions: MDCK, SI = CC50/IC50
Dengue = assay: antiviral assay, Dengue in Vero; type: cell-based; conditions: SI = CC50/IC50

Molecule: C#Cc1cn([C@@H]2C=C(CO)C(O)C2O)c2ncnc(N)c12 (stereo partly shown) [Compound 27, 7-Deaza-7-Acetylene-Neplanocin A]
- SI (Hepatitis B Virus [1]; SI = CC50/EC90): >188
- SI (Hepatitis B Virus [2]): >40

Molecule: Nc1ncnc2c1c(I)cn2[C@@H]1C=C(CO)[C@@H](O)[C@H]1O [Compound 13, 7-Deaza-7-Iodo Neplanocin A]
- SI (Hepatitis B Virus [1]; SI = CC50/EC90): >167
- SI (Hepatitis B Virus [2]): >51

Molecule: Nc1ncnc2c1c(Br)cn2[C@@H]1C=C(CO)C(O)C1O (stereo partly shown)
- SI value (HCV RNA replicon; HT @ 20 μM): > 1.91
- SI value (HCV RNA replicon; HT @ 100 μM): 2.5

Molecule: Nc1nccc2c1ncn2[C@@H]1C=C(CO)[C@@H](O)[C@H]1O [Compound 3-DNPA, (−)-1-[(1R,4R,5S)-3-(Hydroxymethyl)-4,5-dihydroxy-2-cyclopenten-1-yl]-4-aminoimidazo[4,5-c]pyridine Hydrochloride]
- SI (Cowpox): >300
- SI (Vaccinia): >300
- SI (Hepatitis B Virus [1]; HBV, Huh7 ET, SI = CC50/IC50): 178
- SI (HCV RNA replicon; HCV, HRR, Huh7 ET, SI = CC50/IC50): 0.89
- SI (SARS; NR): 0.7
- SI (SARS; Visual): 10
- SI (RSV A; NR): >100
- SI (RSV A; Visual): >100
- SI (Rhinovirus; NR): 4
- SI (Rhinovirus; Visual): 32
- SI (PIV; NR): >100
- SI (PIV; Visual): >100
- SI (Measles; NR): 12
- SI (Measles; Visual): 10
- SI (Flu A (H1N1); NR): 25
- SI (Flu A (H1N1); Visual): >100
- SI (Flu A (H3N2); NR): >100
- SI (Flu A (H3N2); Visual): >100
- SI (Flu A (H5N1); NR): >100
- SI (Flu A (H5N1); Visual): >100
- SI (Yellow Fever; NR): >100
- SI (Yellow Fever; Visual): >100

Molecule: C=Cc1cn([C@@H]2C=C(CO)[C@H](O)C2O)c2ncnc(N)c12 (stereo partly shown) [Compound 25, 7-Deaza-7-Vinyl-Substituted Neplanocin A]
- SI (Hepatitis B Virus [1]; SI = CC50/EC90): >33
- SI (Hepatitis B Virus [2]): >11

Molecule: NC(=O)c1cn([C@@H]2C=C(CO)C(O)C2O)c2ncnc(N)c12 (stereo partly shown)
- SI value (HCV RNA replicon; HT not given): 6.38

Molecule: C#Cc1cn([C@@H]2C=C(CO)C(O)C2O)c2ncnc(N)c12 (stereo partly shown) [drawing 37]
- SI value (HCV RNA replicon; HT @ 20 μM): > 1.63
- SI value (HCV RNA replicon; HT @ 100 μM): 2.44

Molecule: Nc1ncnc2c1c(Cl)cn2[C@@H]1C=C(CO)C(O)C1O (stereo partly shown)
- SI value (HCV RNA replicon; HT @ 100 μM): >3.48

Molecule: NC(=O)c1cn(C2C=C(CO)C(O)C2O)nn1 (stereo not shown) [Compound 17c, 1-(4,5-Dihydroxy-3-hydroxymethyl-cyclopenten-2-enyl)-1H-[1,2,3]triazole-4-carboxylic acid amide]
- SI (SARS virus): > 2.1

Molecule: 1-(4,5-Dihydroxy-3-hydroxymethyl-cyclopenten-2-enyl)-1H-[1,2,4]triazole-3-carboxylic acid amide [Compound 17a]
- SI (SARS virus): > 4.8

Molecule: Nc1ncnc2c1c(I)cn2[C@@H]1C=C(CO)C(O)C1O (stereo partly shown)
- SI value (HCV RNA replicon; HT @ 5 μM): > 1.63
- SI value (HCV RNA replicon; HT @ 100 μM): > 6.99

Molecule: Nc1nccc2ncn([C@@H]3C=C(CO)[C@@H](O)[C@H]3O)c12 [Compound N7-3-DNPA]
- SI (Cowpox): >300
- SI (Vaccinia): >300
- SI (Hepatitis B Virus [1]; HBV, Huh7 ET, SI = CC50/IC50): >300
- SI (SARS; NR): >100
- SI (SARS; Visual): 51
- SI (Flu A (H1N1); NR): 32
- SI (Flu A (H1N1); Visual): 32
- SI (Flu A (H3N2); NR): 32
- SI (Flu A (H3N2); Visual): 32
- SI (Flu A (H5N1); NR): >100
- SI (Flu A (H5N1); Visual): >100
- SI (Flu B; NR): >100
- SI (Flu B; Visual): >100
- SI (Yellow Fever; NR): >100
- SI (Yellow Fever; Visual): >100
- SI (Dengue; NR): >100
- SI (Dengue; Visual): >100
